# Vif 1203: effect of single changes on growth against APOBEC3G

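Pooled viruses with one designed change each in Vif went through two 72 h rounds in SupT1 cells expressing APOBEC3G. Each of three replicates was sequenced after round two and set against the merged round-one pool.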

Scanned stretch, residues 12 to 115 of Vif from HIV-1 1203 (a subtype B primary isolate):
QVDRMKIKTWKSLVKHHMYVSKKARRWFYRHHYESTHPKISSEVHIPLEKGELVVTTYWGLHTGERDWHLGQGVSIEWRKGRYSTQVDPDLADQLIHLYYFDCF

Values are log2 enrichment relative to wild type (0); lower means weaker defence against APOBEC3G and poorer growth.
Substitutions are written as wild-type residue, site number, new residue.
The median of three replicates is given.
Input reads are the counts in the merged round-one pool, before selection.

| # | substitution | input reads | log2 enrichment (median) |
|---|---|---|---|
| 1 | S46R | 573 | 0.15 |
| 2 | E54W | 31 | -3.01 |
| 3 | Y30P | 17 | -2.55 |
| 4 | P100G | 20 | 0.93 |
| 5 | V55Y | 173 | -2.66 |
| 6 | T74L | 23 | 0.28 |
| 7 | K34V | 698 | -2.42 |
| 8 | P100L | 31 | -1.40 |
| 9 | W79S | 167 | -2.62 |
| 10 | G92F | 191 | -2.60 |
| 11 | G75I | 192 | -1.70 |
| 12 | Y44N | 776 | 0.56 |
| 13 | H28R | 283 | -1.78 |
| 14 | H43S | 1149 | -2.51 |
| 15 | R15E | 582 | -1.82 |
| 16 | G92V | 108 | 0.04 |
| 17 | L72C | 481 | -2.23 |
| 18 | P100A | 26 | -0.14 |
| 19 | K33H | 22 | 1.19 |
| 20 | R77V | 29 | -1.89 |
| 21 | D101H | 20 | 0.94 |
| 22 | Y110I | 30 | 0.90 |
| 23 | Q83L | 36 | -0.43 |
| 24 | Y40T | 282 | -1.66 |
| 25 | C114P | 203 | -0.08 |
| 26 | R41Y | 17 | 0.17 |
| 27 | D78H | 20 | 1.12 |
| 28 | E76V | 17 | 0.64 |
| 29 | A103P | 149 | -2.95 |
| 30 | F39K | 345 | -1.91 |
| 31 | V65S | 18 | -2.63 |
| 32 | D113Q | 556 | -3.16 |
| 33 | T68D | 219 | -1.81 |
| 34 | S23Q | 151 | -2.92 |
| 35 | L106R | 616 | -2.34 |
| 36 | G75S | 25 | 0.11 |
| 37 | H42E | 157 | -1.87 |
| 38 | L81V | 29 | -1.94 |
| 39 | F39S | 2154 | -2.11 |
| 40 | L72I | 222 | -2.93 |
| 41 | T68W | 35 | -0.38 |
| 42 | M29N | 896 | -0.05 |
| 43 | Y111H | 17 | -0.58 |
| 44 | G84A | 273 | -2.23 |
| 45 | G82N | 161 | -2.46 |
| 46 | D113N | 20 | 2.07 |
| 47 | D104C | 413 | 1.20 |
| 48 | W38Q | 406 | -2.14 |
| 49 | C114D | 583 | -1.51 |
| 50 | D14N | 559 | 0.53 |
| 51 | R36K | 455 | -1.16 |
| 52 | T67L | 552 | -2.41 |
| 53 | V66A | 37 | -1.34 |
| 54 | M16V | 17 | 0.21 |
| 55 | K34Y | 19 | -0.55 |
| 56 | Q97V | 360 | -2.28 |
| 57 | S32G | 494 | -1.55 |
| 58 | H48A | 26 | -0.42 |
| 59 | L72A | 161 | 0.11 |
| 60 | H42F | 282 | -1.21 |
| 61 | D14A | 269 | -1.85 |
| 62 | K50T | 307 | -1.94 |
| 63 | F112T | 353 | -0.91 |
| 64 | W79Y | 16 | 1.39 |
| 65 | H42Y | 239 | -1.48 |
| 66 | V98W | 2056 | -2.43 |
| 67 | Q105R | 165 | -3.00 |
| 68 | E88A | 285 | -2.20 |
| 69 | T67I | 209 | -2.05 |
| 70 | T74I | 624 | 0.36 |
| 71 | D113A | 16 | -0.90 |
| 72 | C114E | 1003 | 0.56 |
| 73 | E60D | 33 | 0.37 |
| 74 | R77G | 21 | 0.89 |
| 75 | K50R | 32 | -0.74 |
| 76 | C114V | 853 | -3.14 |
| 77 | R90Q | 256 | -2.22 |
| 78 | E63K | 179 | -1.81 |
| 79 | V25C | 178 | 0.03 |
| 80 | Q97R | 21 | 0.68 |
| 81 | D113Y | 269 | -0.86 |
| 82 | K34T | 1038 | -1.79 |
| 83 | T68C | 83 | 3.80 |
| 84 | D14G | 37 | 0.21 |
| 85 | F112R | 23 | -1.41 |
| 86 | D101Q | 373 | 1.10 |
| 87 | T96I | 82 | -1.49 |
| 88 | F112V | 790 | -0.95 |
| 89 | L59R | 231 | -1.90 |
| 90 | V31N | 269 | -2.21 |
| 91 | F112P | 538 | 0.75 |
| 92 | H28G | 102 | -1.89 |
| 93 | R36Y | 177 | 0.40 |
| 94 | D78N | 22 | 2.32 |
| 95 | F39A | 359 | -2.53 |
| 96 | E76H | 316 | -2.02 |
| 97 | L106P | 773 | -1.95 |
| 98 | R90K | 50 | -0.36 |
| 99 | W38Y | 803 | 0.94 |
| 100 | L81N | 19 | 3.23 |
| 101 | C114G | 38 | 3.62 |
| 102 | M16I | 509 | -0.99 |
| 103 | K34N | 1196 | -0.88 |
| 104 | E88R | 29 | 0.60 |

The first 10 entries again:

substitution,input reads,log2 enrichment (median)
S46R,573,0.15
E54W,31,-3.01
Y30P,17,-2.55
P100G,20,0.93
V55Y,173,-2.66
T74L,23,0.28
K34V,698,-2.42
P100L,31,-1.40
W79S,167,-2.62
G92F,191,-2.60

Not every substitution is listed.
The authors note that some positive scores may be noise, and some enriched variants failed when tested singly.
The scan is noisy: the rank correlation of replicates is about 0.4 to 0.65, and variants with under about 50 input reads tend to read too high.

Data from the supplement of Langley et al. 2025, preprint, doi:10.1101/2025.10.20.683452.